Data from US9187523B2 (priority 2006, dated 2015).

Experiments:
[1] = molecular target: T1, purified Pla (Yersinia pestis, UniProt P17811, INS56GHHHHHH)
[2] = molecular target: T1, purified Pla; conditions: pre-incubation with purified Pla, spotted on fibrin film
[3] = molecular target: purified recombinant plague plasminogen activator (Pla) (Yersinia pestis, UniProt P17811, INS56GHHHHHH)
[4] = molecular target: Pla expressed on the surface of Y. pestis (Yersinia pestis, UniProt P17811); assay: Fluorimetric assay with Y. pestis cells expressing Pla on their surface

DABCYL-Arg-Arg-OH
cleavage by Pla (LC-MS) of truncated peptides without EDANS ([1]; peptides with DABCYL, lacking EDANS): all, except the shortest peptide DABCYL-Arg-Arg-OH were cleaved

NCCNc1cccc2c(S(=O)(=O)O)cccc12
inhibition of Pla-mediated fibrinolysis (inhibitory activity) [2]: did not inhibit

CN(C)c1ccc(N=Nc2ccc(C(=O)O)cc2)cc1
inhibition of Pla-mediated fibrinolysis (inhibitory activity) [2]: did not inhibit

DABCYL-Arg-Arg-Ile-(EDANS)-NH2
substrate and inhibitory properties compared with the hexamer substrate ([3]; kinetic characterization, fluorimetric and functional fibrinolytic assays): substrate properties similar to those of the hexapeptide | inhibition of Pla-mediated fibrinolysis (inhibitory activity) [2]: activity maintained

CC[C@H](C)[C@H](NC(=O)[C@H](CCCNC(=N)N)NC(=O)[C@H](CCCNC(=N)N)NC(=O)c1ccc(N=Nc2ccc(N(C)C)cc2)cc1)C(=O)N[C@@H](CC(N)=O)C(=O)N[C@@H](CCCNC(=N)N)C(=O)N[C@@H](CCC(=O)NCCNc1cccc2c(S(=O)(=O)O)cccc12)C(N)=O [DABCYL-Arg-Arg-Ile-Asn-Arg-Glu-(EDANS)-NH2]
time to plateau of substrate cleavage ([3]; purified Pla): about 60 min | inhibition of Pla-mediated fibrinolysis (inhibitory activity) [2]: concentration-dependent inhibition | site of cleavage by Pla ([1]; LC-MS): between two arginines | time to plateau of substrate cleavage ([4]; cell-associated Pla): about 60 min | inhibition of Pla expressed on the surface of Y. pestis ([4]; high concentrations of the substrate): inhibited
